The values below come from patent US6368788B1 (priority 1987, dated 2002).

The data set relates to Mycobacterium tuberculosis. Also noted: species or system human. The conditions noted are these: in vivo.

As for L-Glu-L-Trp, the “Toxicity or allergic reactions” value is “no toxicity or allergic reactions were observed”.
